Laboratory results: PubChem BioAssay AID504761 (Drosophila RNAi Screening Center, 2011)
In all, the deposit lists about 22,000 reagents; shown is an unselected part of those that have a named target and a result. Over the whole deposit, 116 (0.52%) got an active call. 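Calls depend on retest data that are not deposited; infection was ranked per plate without normalising between plates; the unit of the infection score is not given.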 Raw values are not corrected between plates. Names joined by + are all predicted targets of the reagent. No sequences are given here. The record does not give: the amount of reagent, the time to read-out.

Purpose: 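Fly genes whose silencing reduces dengue virus type 2 infection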 (primary screen)
Cells: D.Mel-2 cells from Drosophila
Reagents: long dsRNA against Drosophila genes
Treatment: infection with dengue virus type 2; dose and infection time not stated
Measured: 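Per well on two replicate plates, imaging gave the percent of cells positive for viral envelope protein, ranked by infection, and a nuclear count of cells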
Direction: infection score: higher = more virus-infected cells; cell count: higher = more cells in the well
Active means: 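Low infection ranks in the two replicates (chance level up to 0.065) followed by a retest with a 1.5-fold or larger significant decrease, p below 0.05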
Calls: active = confirmed: knock-down lowers infection; inactive = not picked or not confirmed

| gene | amplicon | infection score, replicate 1 | infection score, replicate 2 | cell count, replicate 1 | cell count, replicate 2 | Outcome |
| --- | --- | --- | --- | --- | --- | --- |
| CG15237 (GeneID 35591) | DRSC04971 | 9.08 | 9.85 | 6181 | 5230 | inactive |
| FucTB (GeneID 34260) | DRSC02745 | – | – | 662 | 497 | inactive |
| CG8833 (GeneID 39535) | DRSC11050 | 10.4 | 14.9 | 5798 | 5949 | inactive |
| CG31974 (GeneID 33174) | DRSC00522 | 5.1 | 11.2 | 6729 | 7193 | inactive |
| Septin1 (GeneID 33114) | DRSC20573 | 5.61 | – | 6079 | – | inactive |
| Sras (GeneID 44002) | DRSC11287 | 0.39 | 2.91 | 5965 | 5800 | inactive |
| AOX4 (GeneID 41897) | DRSC15337 | 2.47 | 4.34 | 6241 | 6643 | inactive |
| AOX4 (GeneID 41897) | DRSC26337 | 8.75 | 5.67 | 4969 | 5781 | inactive |
| eIF5 (GeneID 32566) | DRSC20165 | 2.75 | 0.92 | 6217 | 7085 | inactive |
| Cp110 (GeneID 33136) | DRSC20630 | 1.58 | 9.76 | 6384 | 6386 | inactive |
| Cp110 (GeneID 33136) | DRSC21716 | 13.9 | 5.13 | 6451 | 6041 | inactive |
| CG15465 (GeneID 31434) | DRSC18048 | 5.8 | 11.7 | 6206 | 6077 | inactive |
| CG15465 (GeneID 31434) | DRSC26250 | 4.46 | 3.68 | 5873 | 6107 | inactive |
| yellow-e2 (GeneID 41652) | DRSC15169 | 3.06 | 17.5 | 6302 | 5022 | inactive |
| CG15891 + CG15892 | DRSC18095 | 16.2 | 0.83 | 6516 | 6024 | inactive |
| CG15891 + CG15892 | DRSC18096 | 22.9 | 7.39 | 5567 | 3911 | inactive |
| CG13113 (GeneID 34271) | DRSC02211 | 2.51 | 0.15 | 6252 | 679 | inactive |
| PGRP-SD (GeneID 38858) | DRSC10856 | 3.61 | 5.59 | 6115 | 5847 | inactive |
| az2 (GeneID 35682) | DRSC07580 | 16.5 | 28.8 | 6545 | 5725 | inactive |
| CG18789 (GeneID 317813) | DRSC02696 | 5.97 | 5.39 | 6470 | 6573 | inactive |
| CG6044 (GeneID 37558) | DRSC04522 | 0.39 | – | 514 | 399 | inactive |
| Rrp1 (GeneID 33500) | DRSC00784 | 3.38 | 2.33 | 6364 | 6788 | inactive |
| Rrp1 (GeneID 33500) | DRSC26575 | 5.01 | 2.09 | 5546 | 5642 | inactive |
| serp (GeneID 40150) | DRSC11035 | 5.22 | 6.72 | 6323 | 6368 | inactive |
| serp (GeneID 40150) | DRSC11036 | 1.44 | 1.68 | 6512 | 6312 | inactive |
| CG8159 (GeneID 41040) | DRSC16392 | 0.91 | 18 | 6402 | 5436 | inactive |
| CG8159 (GeneID 41040) | DRSC27425 | 12.9 | 14.2 | 6516 | 7009 | inactive |
| CG14115 (GeneID 39487) | DRSC10118 | 1.84 | 3.94 | 6237 | 6290 | inactive |
| CG17633 (GeneID 34297) | DRSC02631 | 5.69 | 5.76 | 6481 | 6263 | inactive |
| CG17633 (GeneID 34297) | DRSC29709 | 6.34 | 4.71 | 6486 | 6120 | inactive |
| CadN (GeneID 35070) | DRSC03286 | 7.83 | 1.88 | 5506 | 6860 | inactive |
| CadN (GeneID 35070) | DRSC27368 | 10.6 | 3.76 | 6478 | 6381 | inactive |
| Nep7 (GeneID 43356) | DRSC15830 | 5.3 | 4.5 | 5340 | 5064 | inactive |
| Nep7 (GeneID 43356) | DRSC26582 | 1.34 | 0.95 | 6039 | 6404 | inactive |
| Xpac (GeneID 31357) | DRSC18730 | 6.46 | 0.62 | 5344 | 6629 | inactive |
| Xpac (GeneID 31357) | DRSC25963 | 4.88 | 5.21 | 6409 | 6791 | inactive |
| CG13676 (GeneID 38906) | DRSC10035 | 1.25 | 1.97 | 5536 | 5636 | inactive |
| TyrRS-m (GeneID 37965) | DRSC04286 | 8.29 | 14.1 | 6249 | 1957 | inactive |
| CR18275 (GeneID 8674032) | DRSC18151 | 6.06 | 1.47 | 5367 | 6888 | inactive |
| CR18275 (GeneID 8674032) | DRSC28716 | 10.2 | 26.2 | 5839 | 6090 | inactive |
| Obp49a (GeneID 36399) | DRSC22562 | 5.36 | 0.69 | 6755 | 6652 | inactive |
| Obp49a (GeneID 36399) | DRSC25703 | 6.73 | 1.08 | 5691 | 6036 | inactive |
| krimp (GeneID 36804) | DRSC06578 | 13 | 3.6 | 6603 | 6519 | inactive |
| tmod (GeneID 43633) | DRSC14314 | – | – | 427 | 310 | inactive |
| tmod (GeneID 43633) | DRSC15076 | – | 3.95 | 376 | 6325 | inactive |
| tmod (GeneID 43633) | DRSC17062 | 1.7 | 2.2 | 5520 | 6314 | inactive |
| tmod (GeneID 43633) | DRSC25448 | 2.94 | 2.32 | 6529 | 7035 | inactive |
| ebo (GeneID 47141) | DRSC18787 | 1.91 | 10.2 | 6965 | 7189 | inactive |
| ebo (GeneID 47141) | DRSC28174 | 25.3 | 12.5 | 5916 | 6501 | inactive |
| Gmer (GeneID 37638) | DRSC04376 | 15.2 | 17.4 | 5875 | 6303 | inactive |
| Gmer (GeneID 37638) | DRSC28925 | 15.3 | 5.74 | 5248 | 1447 | inactive |
| CG9254 (GeneID 34773) | DRSC01969 | 4.45 | 5.5 | 6382 | 6278 | inactive |
| Pdrg1 (GeneID 36034) | DRSC28485 | 4.61 | 12.9 | 1909 | 3772 | inactive |
| Fdx1 (GeneID 39070) | DRSC11167 | 0.96 | 6.71 | 5951 | 6049 | inactive |
| Fdx1 (GeneID 39070) | DRSC28052 | 10.6 | 18.8 | 6343 | 3904 | inactive |
| Not11 (GeneID 37839) | DRSC04204 | – | – | 455 | 403 | inactive |
| mars (GeneID 36498) | DRSC06656 | 13.8 | 20.1 | 3272 | 6469 | inactive |
| slim (GeneID 37121) | DRSC06921 | 4.44 | 5.44 | 6236 | 6807 | inactive |

Individual results from the entries so far.
For “cell count, replicate 2”, CG15237 (GeneID 35591) [DRSC04971] shows 5230
For “infection score, replicate 2”, Nep7 (GeneID 43356) [DRSC26582] shows 0.95
